Anti-infective test results gathered from many reports (values: NIAID ChemDB through PubChem).

Shared fields: whole-cell or culture tests; organism: Mycobacterium tuberculosis

ECn is the concentration giving n% inhibition of infection, replication or growth.

structure	read by	measure	changes	conditions	tested at	cells	strain	value
CCCCCCCC/C=C\CCCCCCCc1cc(O)c(C)c(O)c1		MIC					H37Rv	59.4 µg/mL
CN1c2ccccc2Oc2ccc3ccccc3c21	BACTEC	MIC bound					H37Rv	>12.5 µg/mL
CCCN=C(N)c1ccc(N2CCN(c3ccccc3)CC2)cc1		EC50				HEP-2	H37Rv	3.92 µM
CO/N=C1\C(=O)N(CCOCCN2C(=O)/C(=N/OC)c3cc(Cl)ccc32)c2ccc(Cl)cc21	resazurin	MIC					H37Rv	>32 µg/mL
CN1CCN(c2cc3c(cc2F)c(=O)c(C(=O)O)cn3C2CC2)CC1		MIC90						0.5 µg/mL
Cc1ccc(-n2cc(-c3ccc(Cl)cc3)c3c(NNC(=S)NCc4ccccc4)ncnc32)cc1	BACTEC	MIC bound					H37Rv	>12.5 µg/mL
Nc1ccc(C(=O)OCc2ccccc2)c(O)c1		MIC					H37Rv	0.75 µg/mL
CCCCCc1cc(O)c(C)c(OC)c1		MIC					H37Rv	≤2.58 µg/mL
O=S(=O)(N=C1C=CC(=NS(=O)(=O)c2ccccc2)C=C1)c1ccccc1	BACTEC	inhibition			12.5 µg/mL		H37Rv	8%
COc1cc(Cc2cnc(/N=C3\C(=O)N(CN4CCN(c5cc6c(cc5F)c(=O)c(C(=O)O)cn6C5CC5)CC4)c4ccc(F)cc43)nc2N)cc(OC)c1OC		EC50					H37Rv	<6.25 µg/mL
O=[N+]([O-])c1ccc2c(c1)NC(c1cccnc1)S2		MIC					H37Rv	0.4 µg/mL
CC(Cl)CC(=O)C(=O)Nc1nnc(-c2cccc([N+](=O)[O-])c2)s1	visual reading	MIC					H37Rv	>200 µM
CCO/N=C1\C(=O)N(CCOCCN2C(=O)/C(=N/OCC)c3cc(Cl)ccc32)c2ccc(Cl)cc21	resazurin	MIC					H37Rv	>32 µg/mL
c1coc(C2Nc3ccccc3S2)c1		MIC					H37Rv	3.1 µg/mL
CC(C)OC(=O)c1ccc(NC(=O)CCC(=O)O)cc1O		MIC					H37Rv	>20 µg/mL
c1ccc(C2Nc3ccccc3S2)cc1		MIC					H37Rv	200 µg/mL
COc1cc(Cc2cnc(/N=C3\C(=O)N(CN4CCN(C)CC4)c4ccc(F)cc43)nc2N)cc(OC)c1OC		inhibition			6.25 µg/mL		H37Rv	24%
CC(=O)O[C@H]1C(=O)[C@@]2(C)[C@H]([C@H](OC(=O)c3ccccc3)[C@]3(O)C[C@H](OC(=O)[C@H](O)[C@@H](NC(=O)c4ccccc4)c4ccccc4)C(C)=C1C3(C)C)[C@]1(OC(C)=O)CO[C@@H]1C[C@@H]2O	BACTEC	MIC bound					H37Rv	>12.5 µg/mL
O=Nc1c(O)n(CCOCCn2c(O)c(N=O)c3ccccc32)c2ccccc12	resazurin	MIC					H37Rv	>32 µg/mL
O=c1oc2c(Br)cc(Br)cc2cc1-c1cn2cc(Br)ccc2n1	BACTEC	MIC					H37Rv	>6.25 µg/mL
C=CCc1ccc(O)c(O)c1	agar / visual reading	MIC					H37Rv	184 µM
O=C(Nc1cccc(Br)c1)c1cccc2nc3ccccc3nc12		MIC					H37Rv 27294	0.19 µg/mL
CCN(CC)CCOc1ccc(NC(=S)Nc2ccc(OCC(C)C)cc2)cc1	BACTEC	inhibition			0.5 µM			51%
COc1cccc(N2CCN(CN3C(=O)/C(=N\c4ncc(Cc5cc(OC)c(OC)c(OC)c5)c(N)n4)c4cc(F)ccc43)CC2)c1		EC50					H37Rv	<6.25 µg/mL
N#Cc1cccc(C2Nc3ccccc3S2)c1		MIC					H37Rv	6.25 µg/mL
COC(=O)c1ccc(NC(=O)c2cccc3nc4ccccc4nc23)cc1		MIC					H37Rv 27294	25 µg/mL
CCCCCCCCCCCCCCCCCSCCCCCC(=O)O		MIC50					H37Ra	0.63–1 µg/mL
COC(=O)c1cnccn1	resazurin	MIC90	Pyrazinamide-resistant	pH 6.6				>724 µM
CCCCC(=O)c1cc(O)c(C)c(OC)c1		MIC					H37Rv	12.8 µg/mL
O=C(Nc1ccccc1Cl)c1cccc2nc3ccccc3nc12		MIC					H37Rv 27294	0.39 µg/mL
COc1ccc(/C=N/Nc2nnc3c4ccccc4c4ncccc4c3n2)cc1	BACTEC	inhibition			12.5 µg/mL		H37Rv	0%
O=C(O)c1cn(C2CC2)c2cc(N3CCN(c4ccccc4)CC3)c(F)cc2c1=O		MIC90						4 µg/mL
C=C1C(=O)OC(C)(C)C1c1ccccc1	BACTEC	MIC bound					H37Rv	≤12.5 µg/mL
CCCCCCCCCCCCCCCCCCCCSCCC(=O)O		MIC50					H37Ra	0.63–1 µg/mL
Nc1ncnc2c1c(-c1cccc3c1oc1ccccc13)cn2[C@@H]1O[C@H](CO)[C@@H](O)[C@H]1O	broth dilution	MIC					Praha 131	16 µM
NC(=O)c1cnccn1	resazurin	MIC90					H37Rv	>100 µM
C=CCc1ccc(OC(C)=O)c(OC(C)=O)c1	agar / visual reading	MIC					H37Rv	129.5 µM
O=C(Nc1ccc(CCC2=NCCCN2)cc1)c1ccc(C(=O)Nc2ccc(CCC3=NCCCN3)cc2)cc1	BACTEC	MIC					H37Rv	3.13 µg/mL
FC(F)(F)c1ccc2c(c1)NC(c1cccnc1)S2		MIC					H37Rv	3.1 µg/mL
C[C@@H]1CN(c2c(F)c(N)c3c(=O)c(C(=O)O)cn(C4CC4)c3c2F)C[C@H](C)N1		MIC50						0.1–0.2 µg/mL
O=C(NN=Cc1ccc(F)cc1)c1ccc(-n2cc(-c3ccccc3)nn2)cc1O	resazurin	MIC					H37Rv	3.12 µg/mL
Cc1ccn2cc(-c3cc4ccccc4oc3=O)nc2c1	BACTEC	inhibition			6.25 µg/mL		H37Rv	0%
COc1cc(Cc2cnc(/N=C3\C(=O)N(CN4CCN(c5ccc(Cl)cc5)CC4)c4ccc(F)cc43)nc2N)cc(OC)c1OC		inhibition			6.25 µg/mL		H37Rv	45%
Cc1cccc(NC(=O)c2cccc3nc4ccccc4nc23)c1C		MIC					H37Rv 27294	0.39 µg/mL
O=C1C(=O)N(CCOCCN2C(=O)C(=O)c3cc(F)ccc32)c2ccc(F)cc21	resazurin	MIC					H37Rv	>32 µg/mL
C[C@H](O)[C@@H](NSc1ccccc1[N+](=O)[O-])C(=O)NCCc1nc(-c2nc(C(=O)NCCCBr)cs2)cs1	BACTEC	MIC					H37Rv	≥12.8 µg/mL
CC[C@@H](CO)NCCN[C@@H](CC)CO	resazurin	MIC					H37Rv	3.13 µg/mL
CCCCCCOC(=O)c1cnccn1	resazurin	MIC90	Pyrazinamide-resistant	pH 6.6				>480 µM
O=C(NCCCN1c2ccccc2Sc2ccccc21)N1C(=O)/C(=C\c2cccc([N+](=O)[O-])c2)SC1c1cccc([N+](=O)[O-])c1	agar	inhibition			50 µg/mL		H37Rv	83%
O=C(Nc1nnc(-c2ccc([N+](=O)[O-])cc2)s1)C(=O)c1cccs1	visual reading	MIC					H37Rv	>200 µM
COC(=O)c1ccc(NC(=O)/C=C\C(=O)O)cc1O		MIC					H37Rv	>20 µg/mL
O=C(NN=Cc1cccc(Cl)c1)c1ccc(-n2cc(-c3ccccc3)nn2)cc1O	resazurin	MIC					H37Rv	12.5 µg/mL
O=C1CSC(c2ccccc2[N+](=O)[O-])N1C(=O)NCCCN1c2ccccc2Sc2ccccc21	agar	inhibition			25 µg/mL		H37Rv	35%
Nc1ccc(C(=O)OC2CCCCC2)c(O)c1		MIC					H37Rv	>20 µg/mL
CCn1cc(C(=O)O)c(=O)c2cc(F)c(N3CCNC(C)C3)c(F)c21		MBC						2–4 µg/mL
CC1CCCCN1.CC1CCCCN1C(=S)S	BACTEC	MIC					H37Rv	1.6 µg/mL
COc1cc(Cc2cnc(/N=C3\C(=O)N(CN4CCC(C)CC4)c4ccc(F)cc43)nc2N)cc(OC)c1OC		EC50					H37Rv	>6.25 µg/mL
Cc1cccc(OC(=O)c2ccc(N)cc2O)c1		MIC					H37Rv	0.0313 µg/mL
Cc1ccc(/C=N/C(=O)NCCCN2c3ccccc3Sc3ccccc32)cc1	agar	inhibition			25 µg/mL		H37Rv	20%
O=CC1N=C(Cc2ccccc2)OC1=O	BACTEC	MIC bound					H37Rv	>12.5 µg/mL
CO/N=C(\C(=O)N[C@@H]1C(=O)N2C(C(=O)O)=C(CSc3nc(=O)c(=O)[nH]n3C)CS[C@H]12)c1csc(N)n1		MIC90					24 strains (drug-susceptible)	256 µg/mL
C/C1=C/[C@@H]2OC(=O)[C@]3(C)[C@@H]2[C@@H](C[C@]2(C)OC1=CC2=O)O[C@@]3(O)C(C)C	BACTEC	inhibition			12.5 µg/mL		H37Rv	26%
CCn1cc(C(=O)O)c(=O)c2cc(F)c(N3CCN(CN4C(=O)/C(=N\c5ncc(Cc6cc(OC)c(OC)c(OC)c6)c(N)n5)c5cc(F)ccc54)CC3)cc21		EC50					H37Rv	<6.25 µg/mL
Cc1cc(-c2c(C)[nH]n(-c3cc(C)c4cc(F)ccc4n3)c2=O)n(-c2cc(C)c3cc(F)ccc3n2)n1	resazurin	MIC bound					H37Rv	>6.25 µg/mL
Cc1ccc(/C=C2/SC(c3ccc(C)cc3)N(C(=O)NCCCN3c4ccccc4Sc4ccccc43)C2=O)cc1	agar	inhibition			25 µg/mL		H37Rv	22%
NC(=O)c1cnc(Cl)cn1		MIC					ATCC 27294	16 µg/mL
O=C(OCCCOC(=O)c1cnccn1)c1cnccn1	resazurin	MIC90	Pyrazinamide-resistant	pH 6.6				>347 µM
CCc1cccc(C(C)C)c1NC(=O)C(=O)Nn1c(=S)[nH]c2ccccc2c1=O	BACTEC	MIC bound					H37Rv	>12.5 µg/mL
O=c1oc2c([N+](=O)[O-])cccc2cc1-c1cn2ccccc2n1	BACTEC	inhibition			6.25 µg/mL		H37Rv	21%
COc1ccc2c(C)cc(N/N=C(\C)c3cn(C)n(-c4ccccc4)c3=O)nc2c1	BACTEC	MIC					H37Rv	≥12.5 µg/mL
Cc1ccc(C2SCC(=O)N2C(=O)NCCCN2c3ccccc3Sc3ccccc32)cc1	agar	inhibition			50 µg/mL		H37Rv	41%
CCCCOC(=O)c1ccc(NC(=O)CCC(=O)O)cc1O		MIC					H37Rv	>20 µg/mL
CS		MIC					H37Rv	0.01 µg/mL
CCN(CC)CCNc1ccc(CO)c2oc3ccccc3c(=O)c12	BACTEC	inhibition			12.5 µg/mL		H37Rv	-18%
O=[N+]([O-])c1ccc(C2Nc3ccccc3S2)o1		MIC					H37Rv	6.3 µg/mL
CC1(C)S[C@@H]2[C@H](NC(=O)C(C(=O)O)c3ccccc3)C(=O)N2[C@H]1C(=O)O		MIC50					24 strains (drug-susceptible)	>256 µg/mL
CN(C)CCCN1c2ccc3ccccc3c2Sc2cccc(Cl)c21		MIC					H37Rv	3.13 µg/mL
CN1c2ccccc2SC1c1ccncc1		MIC					H37Rv	25 µg/mL
O=C(/N=C/c1cccc(Cl)c1)NCCCN1c2ccccc2Sc2ccccc21	agar	inhibition			50 µg/mL		H37Rv	34%
Cc1cccc(OC(=O)c2ccc(N)cc2O)c1		MIC					H37Rv (p-aminosalicylate-resistant)	75 µg/mL
COc1cccc(/C=C2/SC(c3cccc(OC)c3)N(C(=O)NCCCN3c4ccccc4Sc4ccccc43)C2=O)c1	agar	inhibition			50 µg/mL		H37Rv	63%
O=C(O)c1cc(N=Nc2ccc(/C=C/c3ccc(N=Nc4ccc(O)c(C(=O)O)c4)cc3S(=O)(=O)[O-])c(S(=O)(=O)[O-])c2)ccc1O.[Na+].[Na+]	BACTEC	inhibition			12.5 µg/mL		H37Rv	12%
CCOC(=O)c1cc(C(=O)c2ccccc2)n2ccc(-c3ccncc3)cc12	resazurin	EC90					H37Rv (ATCC 27294)	>100 µg/mL
NC(=O)/C(N=Nc1ccccc1S(=O)(=O)O)=N/Nc1ccccc1S(=O)(=O)O	BACTEC	MIC					H37Rv	≥12.5 µg/mL
O=C(/N=C/c1ccccc1Cl)NCCCN1c2ccccc2Sc2ccccc21	agar	inhibition			50 µg/mL		H37Rv	35%

Percent inhibition refers to the dose given; in toxicity tests it is the harm to the cells. Rows are shuffled and stem from different studies. Blank or dashed fields: not listed here. MIC bound comes from a single tested concentration. a–b is a range or a potency band. MIC50, MIC90 and the like: level of inhibition, or share of isolates inhibited.